{"source": "paper PMC9176655", "about": "“Nebulized fusion inhibitory peptide protects cynomolgus macaques from measles virus infection” (Research Square, 2022)", "experiment": "Safety and toxicology of nebulized peptide", "conditions": "noninfected animals, days 0, 1, 2, 3, 6 and 28, HRC4 4 mg/kg n=5 vs saline n=3", "data": [{"smiles": "CC[C@H](C)[C@H](NC(=O)[C@H](C)NC(=O)[C@H](CC(N)=O)NC(=O)CNC(=O)[C@H](CC(C)C)NC(=O)[C@H](CC(N)=O)NC(=O)[C@@H](NC(=O)CNC(=O)[C@@H](NC(=O)[C@H](CC(=O)O)NC(=O)[C@H](CC(C)C)NC(=O)[C@H](CCCNC(=N)N)NC(=O)[C@H](CCC(=O)O)NC(=O)[C@H](CC(C)C)NC(=O)[C@H](CO)NC(=O)[C@@H](NC(=O)[C@@H]1CCCN1C(=O)[C@@H]1CCCN1)[C@@H](C)CC)C(C)C)[C@@H](C)O)C(=O)N[C@@H](C)C(=O)N[C@@H](CCCCN)C(=O)N[C@@H](CC(C)C)C(=O)N[C@@H](CCC(=O)O)C(=O)N[C@@H](CC(=O)O)C(=O)N[C@@H](C)C(=O)N[C@@H](CCCCN)C(=O)N[C@@H](CCC(=O)O)C(=O)N[C@@H](CC(C)C)C(=O)N[C@@H](CC(C)C)C(=O)N[C@@H](CCC(=O)O)C(=O)N[C@@H](CO)C(=O)N[C@@H](CO)C(=O)N[C@@H](CC(=O)O)C(=O)N[C@@H](CCC(N)=O)C(=O)N[C@H](C(=O)N[C@@H](CC(C)C)C(=O)N[C@@H](CCCNC(=N)N)C(=O)NCC(=O)N[C@@H](CO)C(=O)NCC(=O)N[C@@H](CO)C(=O)NCC(=O)N[C@@H](CSC1CC(=O)N(CCCC(=O)NCCOCCOCCOCCOCCC(=O)NCCN(CCNC(=O)CCOCCOCCOCCOCCNC(=O)CCCN2C(=O)CC(SC[C@H](NC(=O)CNC(=O)[C@H](CO)NC(=O)CNC(=O)[C@H](CO)NC(=O)CNC(=O)[C@H](CCCNC(=N)N)NC(=O)[C@H](CC(C)C)NC(=O)[C@@H](NC(=O)[C@H](CCC(N)=O)NC(=O)[C@H](CC(=O)O)NC(=O)[C@H](CO)NC(=O)[C@H](CO)NC(=O)[C@H](CCC(=O)O)NC(=O)[C@H](CC(C)C)NC(=O)[C@H](CC(C)C)NC(=O)[C@H](CCC(=O)O)NC(=O)[C@H](CCCCN)NC(=O)[C@H](C)NC(=O)[C@H](CC(=O)O)NC(=O)[C@H](CCC(=O)O)NC(=O)[C@H](CC(C)C)NC(=O)[C@H](CCCCN)NC(=O)[C@H](C)NC(=O)[C@@H](NC(=O)[C@H](C)NC(=O)[C@H](CC(N)=O)NC(=O)CNC(=O)[C@H](CC(C)C)NC(=O)[C@H](CC(N)=O)NC(=O)[C@@H](NC(=O)CNC(=O)[C@@H](NC(=O)[C@H](CC(=O)O)NC(=O)[C@H](CC(C)C)NC(=O)[C@H](CCCNC(=N)N)NC(=O)[C@H](CCC(=O)O)NC(=O)[C@H](CC(C)C)NC(=O)[C@H](CO)NC(=O)[C@@H](NC(=O)[C@@H]3CCCN3C(=O)[C@@H]3CCCN3)[C@@H](C)CC)C(C)C)[C@@H](C)O)[C@@H](C)CC)[C@@H](C)CC)C(=O)O)C2=O)CCO[C@H]2CC[C@@]3(C)C(=CC[C@H]4[C@@H]5CC[C@H]([C@H](C)CCCC(C)C)[C@@]5(C)CC[C@@H]43)C2)C1=O)C(=O)O)[C@@H](C)CC", "note": "(stereo partly shown) [HRC4]", "values": [{"measurement": "Hematological and biochemical parameters in blood", "value": "did not show significant variations between groups"}]}]}
